Pooled drug test results. Numbers come from NIAID ChemDB, via PubChem.

Shared fields: growth or infection tests; species: Mycobacterium tuberculosis

a–b is a range or a potency band. For "inactive" no cut-off is given. Blank or dashed fields: not listed here. A number after MIC or MFC names an inhibition level or a share of isolates. Inhibition is in % at the dose shown (toxicity tests: loss of growth or viability). MIC bound: limit read from a one-dose screen. Neighbouring rows are from separate reports.

SMILES,measure,setting,strain,cell line,changes,method,tested at,value
O=C(Nc1ccc(C(F)(F)F)cc1)c1cc(Cl)ccc1OP(=O)(c1ccccc1)c1ccccc1,MIC,21 d,Praha 4,-,-,-,-,1 µM
Fc1ccc(N2CCN(c3ccc(Nc4ncnc5ccsc45)cc3)CC2)cc1,MIC50,-,H37Rv,-,-,luminescence,-,>20 µM
O=C(Nc1ccc(C(F)(F)F)cc1)c1cc(Cl)ccc1OP(=O)(Oc1ccccc1)Oc1ccccc1,MIC,14 d,My 331/88,-,-,-,-,2 µM
COc1ccc2c(Cl)c3cc(Cl)ccc3nc2c1,MIC,-,H37Rv,-,-,-,-,100 µg/mL
Cc1ccc2c(c1)nc1cc(Nc3ccc(Cl)cc3)c(=NC3CCCCCCC3)cc-1n2-c1ccc(Cl)cc1,MIC,-,H37Rv (INH-resistant),-,-,-,-,0.2 µg/mL
O=C(O)CN1CCN(CC(=O)O)CC1,MIC bound,-,H37Rv,-,-,BACTEC,-,>12.8 µg/mL
COc1cc(CNCCNC[C@]2(C)CCC[C@]3(C)c4ccc(C(C)C)cc4CC[C@@H]23)cc(OC)c1OC,MIC,-,-,-,-,-,-,50 µM
OCCOCCO,MIC,-,H37Rv,-,-,-,-,>100 µg/mL
CCCCC1=NCCc2c1cc1c([nH]c3ccccc31)c2C,MIC,-,H37Rv,VERO,-,resazurin,-,1.56 µg/mL
Cc1onc(-c2ccccc2Cl)c1C(=O)N[C@@H]1C(=O)N2[C@@H]1SC(C)(C)[C@@H]2C(=O)O,inhibition,21 d,Gordon,-,-,colony count,10 µg/mL,100%
c1ccc(NCCNC2C3CC4CC(C3)CC2C4)cc1,MIC,-,H37Rv,-,-,-,-,25 µM
Cl.Nc1ccc(S(=O)(=O)CCCS(=O)(=O)c2ccc(N)cc2)cc1,MIC,-,H37Rv,-,-,-,-,>100 µg/mL
FC(F)(F)c1ccc(Oc2ccc(Nc3ncnc4cccnc34)cc2)cc1,MIC50,-,H37Rv,-,-,luminescence,-,>10 µM
COc1ccc(-c2nc3c(N)nc(N)nc3nc2C(C)C)cc1,MIC90,-,H37Rv,-,-,resazurin / fluorescence,-,2–8 µM
O=C1NC(=S)N/C1=C\c1ccccc1,MIC,-,H37Rv,-,-,-,-,50 µg/mL
COc1c(N2CCNC(C)C2)c(F)cc2c(=O)c(C(=O)O)cn(C3CC3)c12,MIC,-,H37Rv,-,-,-,-,0.05 µg/mL
O=[N+]([O-])c1cccc(O)c1,MIC,-,H37Rv,-,-,-,-,>100 µg/mL
CS(=O)(=O)c1ccc(Oc2ccc(Nc3ncnc4cc(F)ccc34)cc2)cc1,MIC50,-,H37Rv,-,-,luminescence,-,>50 µM
O=C1NN(C2=NNC3(C(=O)N2)c2ccccc2-c2ccccc23)C(c2ccccc2)=N/C1=C\c1ccc(O)cc1,inhibition,-,H37Rv,-,-,resazurin,6.25 µg/mL,32%
O=C1c2cc(Cl)ccc2OP(=O)(c2ccccc2)N1c1ccc(C(F)(F)F)cc1,MIC,14 d,9449/2007,-,-,-,-,1 µM
N#Cc1ccc2c(=O)c3ccccc3oc2c1,inhibition,-,H37Rv,-,-,-,4 µg/mL,inactive
CC(C)c1ccc2c(c1)CC[C@H]1[C@](C)(CNCCNCc3ccc4c(c3)OCO4)CCC[C@]21C,MIC,-,-,-,-,-,-,12.5 µM
O=C1OC(c2ccccc2)=N/C1=C\c1ccc(Cl)cc1,inhibition,-,H37Rv,-,-,BACTEC,12.5 µg/mL,24%
COC(=O)c1cccc2oc3ccccc3c(=O)c12,inhibition,-,H37Rv,-,-,-,16 µg/mL,inactive
NC(C(=O)[O-])(c1ccccc1)c1ccccc1.[Na+],MIC,-,H37Rv,-,-,-,-,100 µg/mL
CCCCOc1ccc(NC(=S)Nc2ccc(N(C)C)cc2)cc1,MIC,-,BCG #256,-,-,-,-,16.6 µg/mL
FC(F)(F)c1ccc(CNc2ncnc3ccsc23)cc1,MIC50,-,H37Rv,-,-,luminescence,-,>50 µM
O=C(Nc1ccc(C(F)(F)F)cc1)c1cc(Cl)ccc1OP(=O)(OCc1ccccc1)OCc1ccccc1,MIC,14 d,My 331/88,-,-,-,-,4 µM
NC1=NC2(CCCCC2)N(OCCCOc2ccc3ccccc3c2)C(N)=N1,MIC90,-,H37Rv,-,Overexpressing DHFR,resazurin / fluorescence,-,2 µM
Cc1ccc(S(=O)(=O)NC(=O)Nc2c(-c3nc4ccccc4s3)[n+]([O-])c3ccccc3[n+]2[O-])cc1,MIC,-,H37Rv,-,-,BACTEC,-,≥12.5 µg/mL
FC(F)(F)c1ccc(Oc2ccc(Nc3ncnc4cc(Cl)ccc34)cc2)cc1,MIC50,-,H37Rv,-,-,luminescence,-,>20 µM
Cn1cc(C(=O)/C(Cl)=C(\Cl)C(=O)O)c2ccccc21,MIC bound,-,H37Rv,-,-,BACTEC,-,>6.25 µg/mL
FC(F)(F)Oc1ccc(CCNc2ncnc3cc(Br)ccc23)cc1,MIC50,-,H37Rv,-,-,luminescence,-,>20 µM
CCN(CC)CCOc1ccc(NC(=S)Nc2ccc(OCC(C)C)cc2)cc1,MIC,-,76,-,-,-,-,31.3 µg/mL
O=S(=O)(c1ccc(OC(F)(F)F)cc1)C1CCN(c2ccc(Nc3ncnc4cc(F)ccc34)cc2)CC1,MIC50,-,H37Rv,-,-,luminescence,-,>50 µM
NNC(=O)c1ccncc1,MIC,-,H37Rv,-,-,-,-,0.065 µg/mL
O=[N+]([O-])c1ccc2c(c1)oc1ccccc12,MIC,-,H37Rv,-,-,-,-,100 µg/mL
COc1ccc(OC)c(CCNCCNCCCN2CCCC2=O)c1,MIC,-,-,-,-,-,-,12.5 µM
O=C(O)c1c([N+](=O)[O-])ccc2oc3ccc([N+](=O)[O-])cc3c(=O)c12,inhibition,-,H37Rv,-,-,-,32 µg/mL,inactive
CCN(CC)CCCC(C)NC(=O)c1ccc(Cl)nc1,MIC bound,-,H37Rv,-,-,BACTEC,-,>12.5 µg/mL
NNC(=O)c1ccncc1,MIC,-,H37RV #302,-,-,-,-,<0.5 µg/mL
COC(=O)NC1CC(C2CO2)OC1=O,inhibition,-,H37Rv,-,-,BACTEC,12.5 µg/mL,0%
FC(F)(F)c1ccc(Oc2ccc(Nc3ncnc4[nH]ccc34)cc2)cc1,MIC50,-,H37Rv,-,-,luminescence,-,0.46 µM
C/C=C/C(=O)NNC(=O)/C=C/C,MIC,-,-,-,-,-,-,>200 µg/mL
O=C1C=CC2NC(c3cccs3)Nc3cccc1c32,MIC,-,H37Rv,-,-,BACTEC,-,128 µg/mL
OC1(C#CC2(O)CCC3CCCCC3C2)CCCCC1,MIC,-,H37Rv,-,-,-,-,>100 µg/mL
CCN(CC)CCNC(=O)c1cn(C)c(=O)[nH]c1=O,inhibition,-,H37Rv,-,-,resazurin,6.25 µg/mL,-1%
Oc1c(-c2nc3ccccc3o2)ccc2ccccc12,MIC,-,H37Rv,-,-,-,-,>100 µg/mL
COc1ccc(CNCCNC[C@@H]2CC[C@H]3C[C@@H]2C3(C)C)cc1OC,MIC,-,-,-,-,-,-,50 µM
CC(Oc1ccccc1)C(=O)O,MIC,-,H37Rv,-,-,-,-,>100 µg/mL
c1ccc2c(Nc3ccc(NCCN4CCOCC4)cc3)ncnc2c1,MIC50,-,H37Rv,-,-,luminescence,-,>10 µM
O=C(N/N=C/c1ccccc1)c1ccccc1Cl,MIC,-,-,-,-,-,-,1 µg/mL
Fc1ccc2c(Nc3ccc(Oc4ccccc4)cc3)ncnc2c1,MIC50,-,H37Rv,-,-,luminescence,-,>20 µM
Cc1ccc2c(=O)c3ccccc3oc2c1,inhibition,-,H37Rv,-,-,-,2 µg/mL,inactive
CO[C@@]12[C@H](COC(=O)NCCO)C3=C(C(=O)C(C)=C(N)C3=O)N1C[C@H]1[C@@H]2N1C,MIC,-,EMB-R,-,-,-,-,6.3 µg/mL
O=C(O)c1cnc(Cl)cn1,MIC,-,DHMH 4319,-,-,-,-,128 µg/mL
Cc1ccc2oc3ccccc3c(=O)c2c1[N+](=O)[O-],inhibition,-,H37Rv,-,-,-,16 µg/mL,inactive
Fc1ccc2c(NCc3ccc(Oc4cccc(C(F)(F)F)c4)cc3)ncnc2c1,MIC50,-,H37Rv,-,-,luminescence,-,>20 µM
NNC(=O)CNC(=O)c1ccccc1,MIC,-,-,-,-,-,-,100 µg/mL
Cc1ccccc1OCCCON1C(N)=NC(N)=NC1(C)C,MIC90,-,H37Rv,-,Overexpressing DHFR,resazurin / fluorescence,-,15.6 µM
Nc1cccc2c(=O)[nH][nH]c(=O)c12,MIC,-,-,-,-,-,-,>200 µg/mL
c1ccc(COc2ccc(CN3CCCN(Cc4ccc(OCc5ccccc5)cc4)CC3)cc2)cc1,MIC,-,H37Rv,-,-,-,-,12.5 µM
COC(=O)c1ccc2oc3ccccc3c(=O)c2c1,inhibition,-,H37Rv,-,-,-,16 µg/mL,inactive
Cc1cc[c]([Sb]([c]2ccc(C)cc2)[c]2ccc(C)cc2)cc1,MIC,-,H37Rv,-,-,-,-,>100 µg/mL
FC(F)(F)Oc1ccc(CNCCNC2CCCCCCC2)cc1,MIC,-,-,-,-,-,-,50 µM
CC1(C)N=C(N)N=C(N)N1OCCSCc1cc(Cl)sc1Cl,MIC90,-,H37Rv,-,Overexpressing DHFR,resazurin / fluorescence,-,>2 µM
Fc1ccc2c(Nc3ccc(N4CCN(c5ccc(C(F)(F)F)cn5)CC4)cc3)ncnc2c1,MIC50,-,H37Rv,-,-,luminescence,-,>20 µM
CC(=O)CN1C(=O)c2ccccc2C1=O,MIC,-,H37Rv,-,-,-,-,>100 µg/mL
Fc1ccc2c(Nc3ccc(N4CCN(c5ccc(C(F)(F)F)cc5)CC4)cc3)ncnc2c1,MIC50,-,H37Rv,-,-,luminescence,-,>10 µM
O=C1c2ccccc2OP(=O)(c2ccccc2)N1c1ccccc1,MIC,7 d,My 331/88,-,-,-,-,>500 µM
c1cc2c(cc1CN1CCN(C3C4CC5CC(C4)CC3C5)CC1)OCO2,MIC,-,H37Rv,-,-,-,-,25 µM
O=c1[nH]c2ccccc2o1,MIC,-,H37Rv,-,-,-,-,25 µg/mL
CCc1nc2ccc(NCCN(C)C)c3c(=O)c4ccccc4n1c23,inhibition,-,H37Rv,-,-,BACTEC,12.5 µg/mL,100%
CN(C)c1ccc(CCNc2ncnc3ccsc23)cc1,MIC50,-,H37Rv,-,-,luminescence,-,>50 µM
O=C(O)c1cc([N+](=O)[O-])c2oc3ccc([N+](=O)[O-])cc3c(=O)c2c1,inhibition,-,H37Rv,-,-,-,32 µg/mL,inactive
CC1(C)N=C(N)N=C(N)N1OCCc1ccc2ccccc2c1,MIC90,-,H37Rv,-,Overexpressing DHFR,resazurin / fluorescence,-,11.7 µM
O=C(O)c1cccnc1C(=O)Nc1cccc2ccccc12,inhibition,-,H37Rv,-,-,resazurin,6.25 µg/mL,-2%
C[n+]1ccc2ccc(O)cc2c1.[I-],MIC,-,H37Rv,-,-,-,-,>100 µg/mL
CCOC(=O)C[N+]1(C)C2CCC1CC(OC(=O)C(CO)c1ccccc1)C2.[Cl-],MIC bound,-,H37Rv,-,-,BACTEC,-,>12.5 µg/mL
CC(C)=CCC/C(C)=C/CNCCNC12CC3CC(CC(C3)C1)C2,MIC,-,-,-,-,-,-,12.5 µM
CCCCCCc1cc(C(=O)N/N=C/c2ccc(O)c(OC)c2)c2ccccc2n1,MIC bound,-,H37Rv,-,-,BACTEC,-,>12.5 µg/mL
Cl.NCCCc1cccs1,MIC,-,H37Rv,-,-,-,-,100 µg/mL
Cc1nc(C(=O)N=C(N)N)c(N)nc1-c1ccccc1,inhibition,-,H37Rv,-,-,BACTEC,12.5 µg/mL,10%
O=C(O)c1ccc(C(=O)O)o1,MIC,-,H37Rv,-,-,-,-,>100 µg/mL
O=C(NNS(=O)(=O)c1ccccc1)c1ccccc1,MIC,-,-,-,-,-,-,>200 µg/mL
NC(=O)C1=C[C@H]2[C@H]3C=C[C@@]2(O)C(=O)O[C@@H]3O1,MIC,-,CS-R,-,-,-,-,3.1 µg/mL
COC(=O)c1c([N+](=O)[O-])ccc2oc3ccc([N+](=O)[O-])cc3c(=O)c12,inhibition,-,H37Rv,-,-,-,32 µg/mL,inactive
Cl.NNc1ncn[nH]1,MIC,-,H37Rv,-,-,-,-,>100 µg/mL
O=C1c2cc(Br)ccc2OP(=O)(c2ccccc2)N1c1ccc(C(F)(F)F)cc1,MIC,21 d,7357/1998,-,-,-,-,1 µM
NS(=O)(=O)O,MIC,-,H37Rv,-,-,-,-,>100 µg/mL
Fc1ccc2c(Nc3ccc(N4CCOCC4)c(F)c3)ncnc2c1,MIC50,-,H37Rv,-,-,luminescence,-,>50 µM
COc1ccc(CN2CCCN(Cc3ccc(OC)cc3OC)C2c2ccc(N(C)C)cc2Cl)c(OC)c1,inhibition,-,H37Rv,-,-,BACTEC,12.5 µg/mL,41%
CC(C)c1ccc2c(c1)CC[C@H]1[C@](C)(CNCCNCCF)CCC[C@]21C,MIC,-,-,-,-,-,-,25 µM
CN(C)c1cc(N)c(Cc2c(N)cc(N(C)C)cc2Cl)c(Cl)c1,inhibition,-,H37Rv,-,-,BACTEC,12.5 µg/mL,45%
O=c1[nH]c2c([N+](=O)[O-])cc(Cl)cc2c(=O)o1,MIC,-,H37Rv,-,-,-,-,100 µg/mL
C/C=C1/C(=O)O[C@]23C=C[C@@H]4C(C(=O)OC)=CO[C@H](O[C@@H]12)[C@@H]43,inhibition,-,H37Rv,-,-,BACTEC,12.8 µg/mL,97%
COc1ccc2c(NCCc3ccc(OC(F)(F)F)cc3)ncnc2c1,MIC50,-,H37Rv,-,-,luminescence,-,>20 µM
CCOC(=O)C1CSC(CCCOCc2ccccc2)/C1=N/O,MIC,-,H37Rv,-,-,-,-,25 µg/mL

For reference, 6 entries again:

SMILES | measure | setting | strain | cell line | changes | method | tested at | value
CC(Oc1ccccc1)C(=O)O | MIC | - | H37Rv | - | - | - | - | >100 µg/mL
CCOC(=O)C1CSC(CCCOCc2ccccc2)/C1=N/O | MIC | - | H37Rv | - | - | - | - | 25 µg/mL
O=C1c2ccccc2OP(=O)(c2ccccc2)N1c1ccccc1 | MIC | 7 d | My 331/88 | - | - | - | - | >500 µM
Fc1ccc2c(Nc3ccc(N4CCN(c5ccc(C(F)(F)F)cn5)CC4)cc3)ncnc2c1 | MIC50 | - | H37Rv | - | - | luminescence | - | >20 µM
CO[C@@]12[C@H](COC(=O)NCCO)C3=C(C(=O)C(C)=C(N)C3=O)N1C[C@H]1[C@@H]2N1C | MIC | - | EMB-R | - | - | - | - | 6.3 µg/mL
O=C1NC(=S)N/C1=C\c1ccccc1 | MIC | - | H37Rv | - | - | - | - | 50 µg/mL